Assay results as given in ChEMBL document CHEMBL3045895 (Med Chem Res, 2012).

Target: T1, cAMP-specific 3',5'-cyclic phosphodiesterase 4B (Crotalus adamanteus) (UniProt J3SE37)
T1 sequence (whole entry): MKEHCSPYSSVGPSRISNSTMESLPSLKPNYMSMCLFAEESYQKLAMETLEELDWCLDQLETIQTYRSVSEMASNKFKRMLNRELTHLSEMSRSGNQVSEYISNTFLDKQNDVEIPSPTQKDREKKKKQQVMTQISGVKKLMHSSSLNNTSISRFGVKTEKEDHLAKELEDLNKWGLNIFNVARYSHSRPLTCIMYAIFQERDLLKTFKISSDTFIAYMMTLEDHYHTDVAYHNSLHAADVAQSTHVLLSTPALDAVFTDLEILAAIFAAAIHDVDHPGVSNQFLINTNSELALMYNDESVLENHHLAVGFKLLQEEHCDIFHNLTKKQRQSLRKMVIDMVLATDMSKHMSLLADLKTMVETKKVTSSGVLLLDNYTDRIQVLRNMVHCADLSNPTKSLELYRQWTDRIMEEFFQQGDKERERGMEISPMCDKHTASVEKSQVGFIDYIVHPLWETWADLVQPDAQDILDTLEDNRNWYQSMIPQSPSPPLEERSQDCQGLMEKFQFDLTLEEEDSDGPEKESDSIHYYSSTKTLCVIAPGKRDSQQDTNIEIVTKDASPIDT
Experiment: Inhibition of Serpentes (snake) phosphodiesterase using bis(p-nitrophenyl)phosphate as substrate at 500 uM incubated for 30 min prior to substrate addition by spectrophotometric analysis

Structure (SMILES): Cc1cc(C)n(CN(CCO)Cn2nc(C)cc2C)n1
- inhibition: inactive

Structure (SMILES): Cc1cc(C)n(CO)n1
- inhibition: inactive

Structure (SMILES): Cc1cc(C)n(CN(Cn2nc(C)cc2C)C2CCCCC2)n1
- inhibition: inactive

Structure (SMILES): Cc1cc(CN(CCO)Cc2cc(C)n(C)n2)nn1C
- inhibition: inactive

Active and inactive are the calls of the source. No cut-off for these calls is given here.
